Taken from: PubChem BioAssay AID504761 (Drosophila RNAi Screening Center, 2011)

Assay: 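Insect host genes that dengue virus relies on to spread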 (primary screen)
Cells: D.Mel-2 cells from Drosophila
Reagents: long dsRNA against Drosophila genes
Challenge: infection with dengue virus type 2; dose and infection time not stated
Read-out: 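Per well on two replicate plates, imaging gave the percent of cells positive for viral envelope protein, ranked by infection, and a nuclear count of cells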
Scale: infection score: higher = more virus-infected cells
Call rule: 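Very low infection ranking in both replicate wells (chance probability at most 0.065), then a retest showing infection dropped 1.5-fold or more at p below 0.05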
Calls: active = confirmed: knock-down lowers infection; inactive = not picked or not confirmed
The deposit covers about 22,000 reagents; below is a random part of those with a known target gene and a result. Over the whole deposit, 116 (0.52%) are marked active. 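Calls depend on retest data that are not deposited; infection was ranked per plate without normalising between plates; the unit of the infection score is not given.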 Unmarked entries are inactive. Further read-outs or replicates are left out here. Not given: the amount of reagent, the time to read-out.

What did the screen give for BaraB (Baramicin B) [DRSC06420]?
infection score, replicate 1: 21.8

What is on record for lncRNA:CR32553 (long non-coding RNA:CR32553) [DRSC19229]?
infection score, replicate 1: 3.6

With Cks85A (Cyclin-dependent kinase subunit 85A) [DRSC16562], what does the deposit list?
infection score, replicate 1: 2.17

With Gr98b (Gustatory receptor 98b) [DRSC21675], what does the deposit list?
infection score, replicate 1: 4.6

In a second layout: results already given
{"target": "lncRNA:CR32553 (long non-coding RNA:CR32553)", "amplicon": "DRSC19229", "infection score, replicate 1": 3.6}
{"target": "Cks85A (Cyclin-dependent kinase subunit 85A)", "amplicon": "DRSC16562", "infection score, replicate 1": 2.17}

More reagents:
What did the screen give for CanB (Calcineurin B) [DRSC18449]?
infection score, replicate 1: 5.41

With CanB (Calcineurin B) [DRSC29220], what was measured?
infection score, replicate 1: 2.83

For Abl (Abl tyrosine kinase) [DRSC09661], what does the deposit list?
infection score, replicate 1: 1.34

With Abl (Abl tyrosine kinase) [DRSC23306], what was measured?
infection score, replicate 1: 5.39

What is on record for CG13871 [DRSC06430]?
infection score, replicate 1: 1.46

For CG13871 [DRSC27979], what was measured?
infection score, replicate 1: 1.86

For RnrL (Ribonucleoside diphosphate reductase large subunit) [DRSC03413], what does the deposit list?
infection score, replicate 1: 5.23

Which result is listed for Or67d (Odorant receptor 67d) [DRSC10158]?
infection score, replicate 1: 2.2

For Vps50 (Vacuolar protein sorting 50) [DRSC06910], what was measured?
infection score, replicate 1: 14.6

What did the screen give for Gr85a (Gustatory receptor 85a) [DRSC12760]?
infection score, replicate 1: 3.49
